Results deposited as PubChem BioAssay AID1224833 (University of Georgia, 2016)
Screen: 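Host factors restraining rotavirus as candidate antiviral genes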 (primary screen). Cell system: monkey MA104 kidney cells. Knock-down reagent: siRNA pool against human genes, 50 nM. Timing: 48 h knock-down before infection; read 24 h after infection. Treatment: infection with rotavirus strain RV3 two days after transfection; infectious dose for this stage not given. Measurement: 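z-score of rotavirus antigen signal per well, from a fluorescent immunoassay, relative to non-targeting control wells on the same plate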. Direction: z-score vs non-targeting control: higher = more rotavirus replication than with non-targeting control. Call rule: In these data the active calls have z-score vs non-targeting control at about -1 or lower, or at about 1 or higher. Meaning of the calls: active = z-score beyond 1 either way; inactive = z-score within 1 of zero.
Shown is one part, drawn at random, of about 12,000 reagents tested. Over the whole deposit, about 5,600 (46%) got an active call. 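Active calls cover z-scores past 1 in both directions, so they include lowered as well as raised rotavirus replication.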 Unmarked entries are inactive.

The opening 12 entries, ahead of the listing:
| gene | z-score vs non-targeting control |
| --- | --- |
| SPAG8 (sperm associated antigen 8) | -0.597 |
| TBCA (tubulin folding cofactor A) | 0.611 |
| NOX3 (NADPH oxidase 3) | -1.02 (active) |
| COA8 (cytochrome c oxidase assembly factor 8) | -3.82 (active) |
| SCGB3A2 (secretoglobin family 3A member 2) | 0.795 |
| FAM114A2 (family with sequence similarity 114 member A2) | 0.409 |
| DDX20 (DEAD-box helicase 20) | -1.67 (active) |
| CMTM3 (CKLF like MARVEL transmembrane domain containing 3) | -2.39 (active) |
| ZC3HAV1L (ZC3HAV1 like) | -1.9 (active) |
| PLB1 (phospholipase B1) | -3.05 (active) |
| SERPINI1 (serpin family I member 1) | -2.73 (active) |
| EDA (ectodysplasin A) | -0.788 |

The list itself, repeating the preview:
| gene | z-score vs non-targeting control |
| --- | --- |
| SPAG8 (sperm associated antigen 8) | -0.597 |
| TBCA (tubulin folding cofactor A) | 0.611 |
| NOX3 (NADPH oxidase 3) | -1.02 (active) |
| COA8 (cytochrome c oxidase assembly factor 8) | -3.82 (active) |
| SCGB3A2 (secretoglobin family 3A member 2) | 0.795 |
| FAM114A2 (family with sequence similarity 114 member A2) | 0.409 |
| DDX20 (DEAD-box helicase 20) | -1.67 (active) |
| CMTM3 (CKLF like MARVEL transmembrane domain containing 3) | -2.39 (active) |
| ZC3HAV1L (ZC3HAV1 like) | -1.9 (active) |
| PLB1 (phospholipase B1) | -3.05 (active) |
| SERPINI1 (serpin family I member 1) | -2.73 (active) |
| EDA (ectodysplasin A) | -0.788 |
| CIDEA (cell death inducing DFFA like effector a) | -1.69 (active) |
| AATF (apoptosis antagonizing transcription factor) | -1.23 (active) |
| ABCC6 (ATP binding cassette subfamily C member 6) | -1.26 (active) |
| CNOT7 (CCR4-NOT transcription complex subunit 7) | -0.813 |
| ALG12 (ALG12 alpha-1,6-mannosyltransferase) | -1.01 (active) |
| OR5T1 (olfactory receptor family 5 subfamily T member 1) | 1.35 (active) |
| ACTR3 (actin related protein 3) | 0.666 |
| TXNIP (thioredoxin interacting protein) | -2.44 (active) |
| CD86 (CD86 molecule) | 0.964 |
| LAMC3 (laminin subunit gamma 3) | -6.19 (active) |
| LY75 (lymphocyte antigen 75) | -1.8 (active) |
| CELF3 (CUGBP Elav-like family member 3) | 0.172 |
| MON2 (MON2 regulator of endosome-to-Golgi trafficking) | 1.14 (active) |
| PLEK2 (pleckstrin 2) | -0.624 |
| LCE2A (late cornified envelope 2A) | -0.467 |
| SLC35F2 | 0.727 |
| NACC1 (nucleus accumbens associated 1) | -2.85 (active) |
| PDCD4 (programmed cell death 4) | -1.31 (active) |
| HNRNPM (heterogeneous nuclear ribonucleoprotein M) | -0.66 |
| CD300LB (CD300 molecule like family member b) | 0.246 |
| SPANXN2 (SPANX family member N2) | -1.68 (active) |
| PDCL (phosducin like) | -0.883 |
| GARIN1B (golgi associated RAB2 interactor 1B) | -1.16 (active) |
| TDRD6 (tudor domain containing 6) | 0.322 |
| MRPL30 (mitochondrial ribosomal protein L30) | -1.11 (active) |
| GTF3A (general transcription factor IIIA) | -2.07 (active) |
| GPC4 (glypican 4) | -0.676 |
| PROCR (protein C receptor) | -1.35 (active) |
| CNFN (cornifelin) | -1.32 (active) |
| CCT5 (chaperonin containing TCP1 subunit 5) | -1.72 (active) |
| PJVK (pejvakin) | -1.29 (active) |
| AP3M2 (adaptor related protein complex 3 subunit mu 2) | -0.227 |
| INTS9 (integrator complex subunit 9) | -1.12 (active) |
| RBP4 (retinol binding protein 4) | -0.942 |
| ATP2A1 | -1.36 (active) |
| CYB561D2 (cytochrome b561 family member D2) | 1.37 (active) |
| ATP5F1C (ATP synthase F1 subunit gamma) | 2.67 (active) |
| DNAJB8 (DnaJ heat shock protein family (Hsp40) member B8) | -0.868 |
| NWD1 (NACHT and WD repeat domain containing 1) | 2.62 (active) |
| RAB2A (RAB2A, member RAS oncogene family) | -0.911 |
| TIGD4 (tigger transposable element derived 4) | 0.164 |
| OOEP (oocyte expressed protein) | -1.18 (active) |
| OR10J1 (olfactory receptor family 10 subfamily J member 1) | -0.567 |
| SLC13A5 | 0.84 |
| DEDD2 (death effector domain containing 2) | 0.202 |
| ZNF804B (zinc finger protein 804B) | 0.488 |
| ANP32B (acidic nuclear phosphoprotein 32 family member B) | 0.291 |
| RASSF8 (Ras association domain family member 8) | -0.562 |
| UTP3 (UTP3 small subunit processome component) | -1.27 (active) |
| PC (pyruvate carboxylase) | -1.71 (active) |
| DNAI4 (dynein axonemal intermediate chain 4) | 0.76 |
| SERGEF (secretion regulating guanine nucleotide exchange factor) | 0.442 |
| FNBP1 (formin binding protein 1) | -1.03 (active) |
| MTFP1 (mitochondrial fission process 1) | -2.93 (active) |
| U2SURP (U2 snRNP associated SURP domain containing) | 1.34 (active) |
| SYNPO2L (synaptopodin 2 like) | -0.825 |
| POLR3K (RNA polymerase III subunit K) | 0.604 |
| CREG2 (cellular repressor of E1A stimulated genes 2) | 0.688 |
| CARD18 (caspase recruitment domain family member 18) | 0.947 |
| SURF2 (surfeit 2) | 2.31 (active) |
| HLA-G (major histocompatibility complex, class I, G) | -0.804 |
| RHOBTB3 (Rho related BTB domain containing 3) | 0.965 |
| COPS6 (COP9 signalosome subunit 6) | -1.34 (active) |
| ITGA4 (integrin subunit alpha 4) | -1.37 (active) |
| THOC6 (THO complex subunit 6) | 0.87 |
| SLCO2A1 | -0.87 |
| CAPSL (calcyphosine like) | -1.61 (active) |
| ESR1 (estrogen receptor 1) | -0.728 |
| RSPH3 (radial spoke head 3) | -2.49 (active) |
| IFT70A (intraflagellar transport 70A) | 1.09 (active) |
| MS4A5 (membrane spanning 4-domains A5) | -0.165 |
| OR8H2 (olfactory receptor family 8 subfamily H member 2) | 0.0669 |
| NEUROD1 (neuronal differentiation 1) | -1.35 (active) |
| RPL14 (ribosomal protein L14) | -0.107 |
| CIAO1 (cytosolic iron-sulfur assembly component 1) | 1.73 (active) |
| IRX2 (iroquois homeobox 2) | -0.676 |
| TTC39B (tetratricopeptide repeat domain 39B) | 0.921 |
| TM4SF19 (transmembrane 4 L six family member 19) | 1.35 (active) |
| BANF2 (BANF family member 2) | -1.85 (active) |
| JARID2 (jumonji and AT-rich interaction domain containing 2) | -1.13 (active) |
| TYW2 (tRNA wybutosine-synthesizing protein 2) | 0.686 |
| SLU7 (spliceosome associated SLU7) | -1.9 (active) |
| NDEL1 (nudE neurodevelopment protein 1 like 1) | -0.583 |
| HOXD8 (homeobox D8) | 2.05 (active) |
| KRT31 (keratin 31) | -2.68 (active) |
| ACO2 (aconitase 2) | 0.608 |
| DLX4 (distal-less homeobox 4) | -0.525 |
| ZNF92 (zinc finger protein 92) | 1.64 (active) |
| OR5V1 (olfactory receptor family 5 subfamily V member 1) | -1.36 (active) |
| SH3GL1 (SH3 domain containing GRB2 like 1, endophilin A2) | 0.592 |
| CNOT8 (CCR4-NOT transcription complex subunit 8) | -1.15 (active) |
| PSMC1 (proteasome 26S subunit, ATPase 1) | 0.714 |
| H1-1 (H1.1 linker histone, cluster member) | -2.49 (active) |
| SLC1A6 | -0.128 |
| HRH3 (histamine receptor H3) | -1.02 (active) |
| NDC80 (NDC80 kinetochore complex component) | 1.52 (active) |
| ARHGAP9 (Rho GTPase activating protein 9) | -0.0229 |
| NUP160 (nucleoporin 160) | -0.201 |
